Assay results published in PMC6687188, “Novel lactate dehydrogenase inhibitors with in vivo efficacy against Cryptosporidium parvum” (PLoS Pathogens, 2019).

Target: recombinant CpLDH protein (Cryptosporidium parvum, UniProt Q9GT92, F198L/K295E/R251K)
Assay: Inhibition of the catalytic activity of recombinant CpLDH (reduction of pyruvate to lactate, OD340)
Conditions: 20 μM compound; 10 mM pyruvate, 1 mM NADH; values below 0 = augmenters

SMILES: c1ccc2c(NCCCCCCCCNc3c4ccccc4nc4ccccc34)c3ccccc3nc2c1
- MEAN CpLDH INHIBITION (%): -99.53%
